This is an account of results in patent publication US4463182A, “Antibiotic roridin E-2” (dated 1984).

Each structure is given as a SMILES string. Several values for one entry are separate records, joined by “and”; a condition that tells them apart may be missing. Identical values can stand only once.

One experiment deals with P388 Lymphatic Leukemia. Briefly: Antitumor Activity of Roridin E-2 Against P388 Lymphatic Leukemia in Mice. To be noted: median survival time treated/control × 100, ≥ 125 considered active.
The subject of the next experiment is B16 Melanocarcinoma. The experiment in a line: Antitumor Activity of Roridin E-2 Against B16 Melanocarcinoma in Mice. The following applies: 3.12 mg/kg/day, median survival time treated/control × 100.

`CC1=CC(=O)OCC23CCC(C)=CC2OC2CC(OC(=O)C=CC=CC(C(C)O)OCC1)C3(C)C21CO1` (stereo not shown): the “T/C percent MST” value in the experiment with P388 Lymphatic Leukemia (1.56 mg/kg/day) was 127%; with P388 Lymphatic Leukemia (3.12 mg/kg/day), 131%; with P388 Lymphatic Leukemia (6.25 mg/kg/day), 166% and 165%; in the experiment on B16 Melanocarcinoma, 269% and 202%.
